Anti-infective test results gathered from many reports (values: NIAID ChemDB through PubChem).

Common to all: whole-cell or culture tests; organism: Mycobacterium tuberculosis

Blank or dashed fields: not listed here. Percent inhibition refers to the dose given; in toxicity tests it is the harm to the cells. ECn: concentration that inhibits the pathogen or its effect by n%. Lines come from different laboratories, so protocols vary. MIC bound: limit read from a one-dose screen.

compound,endpoint,cell line,dose,method,strain,result
CCCCC(CC)CN1CN(CC(CC)CCCC)CC(C)(NCCNCCOC)C1,MIC,-,-,-,-,6.25 µM
Cn1c(=O)c2c(nc(/N=C/c3ccc([N+](=O)[O-])cc3)n2C)n(C)c1=O,inhibition,-,6.25 µg/mL,resazurin,H37Rv,-23%
CC1(C)[C@H]2CC[C@@H](CNCCNCCc3ccccc3Cl)[C@@H]1C2,MIC,-,-,-,-,50 µM
Brc1ccc(/C=C/c2ccc3ccccc3n2)cc1,MIC,-,-,-,H37Rv,>100 µg/mL
CC(=O)OC1COC(Nc2nc(NCc3ccccc3)n(C)c(=O)c2N=O)C(OC(C)=O)C1OC(C)=O,MIC bound,-,-,resazurin,H37Rv,>6.25 µg/mL
Oc1cc(O)cc(O)c1,MIC,-,-,-,H37Rv,>100 µg/mL
CC(CNC[C@@H]1CC[C@H]2C[C@@H]1C2(C)C)N[C@H]1C[C@H]2C[C@@H]([C@@H]1C)C2(C)C,MIC,-,-,-,-,25 µM
O=C(NC1=NC2C=CC([N+](=O)[O-])=CC2S1)C(=O)Nn1c(=S)[nH]c2ccccc2c1=O,MIC bound,-,-,BACTEC,H37Rv,>12.5 µg/mL
CCOC(=O)Nc1cc(N[C@@H](C)[C@H](O)c2ccccc2)c(N)c(N)n1,inhibition,VERO,12.5 µg/mL,-,H37Rv,99%
CCCC(=O)NCCO,MIC,-,-,-,H37Rv,>100 µg/mL
COC(=O)C1=C(C)/C(=N/N)CC1,MIC bound,-,-,BACTEC,H37Rv,>12.5 µg/mL
Cc1ccc(C(O)C(=O)O)cc1,MIC,-,-,-,H37Rv,>100 µg/mL
O=C1CN(/N=C/c2ccc([N+](=O)[O-])o2)C(=O)N1,inhibition,-,12.5 µg/mL,BACTEC,H37Rv,3%
FC(F)(F)c1ccc(CNCCNCC23CC4CC(CC(C4)C2)C3)cc1,MIC,-,-,-,-,25 µM
CCCCC(CC)CN1CN(CC(CC)CCCC)CC(C)(NCCNC(C)CCc2ccccc2)C1,MIC,-,-,-,-,25 µM
CCCC1(CN2c3ccccc3Sc3ccccc32)CCN(CC)C1.Cl,MIC,VERO,-,BACTEC,H37Rv,12.5 µg/mL
CCC(C)NCCNCCc1ccc(Cl)cc1Cl,MIC,-,-,-,-,25 µM
O=C1CCCN1CCCNCCNCC(c1ccccc1)c1ccccc1,MIC,-,-,-,-,25 µM
O=C(c1ccccc1)c1ccc(NCc2ccccc2O)cc1,MIC,-,-,-,H37Rv,100 µg/mL
COc1ccc2ncc(COC(=O)NCCCl)c(COC(=O)NCCCl)c2c1,inhibition,-,12.5 µg/mL,BACTEC,H37Rv,43%
NS(=O)(=O)O,MIC,-,-,-,H37Rv,>100 µg/mL
COc1nc(=O)n([C@H]2C=CC(=O)O2)cc1F,inhibition,-,12.5 µg/mL,BACTEC,H37Rv,36%
COc1cc(C(=O)O)cc(C)c1Br,MIC,-,-,-,H37Rv,100 µg/mL
CO[C@H]1/C=C/O[C@@]2(C)Oc3c(C)c(O)c4c(O)c(c5c(c4c3C2=O)NC2(CCN(CC(C)C)CC2)N=5)=NC(=O)/C(C)=C\C=C\[C@H](C)[C@H](O)[C@@H](C)[C@@H](O)[C@@H](C)[C@H](OC(C)=O)[C@@H]1C,MIC,-,-,-,2983 (rifampin-sensitive),0.025 µg/mL
COc1cccc(OP(=O)(Oc2cccc(OC)c2)Oc2cccc(OC)c2)c1,MIC,-,-,-,H37Rv,>100 µg/mL
O=S(=O)(Nc1cc(Cl)c(NS(=O)(=O)c2ccccc2)c(S(=O)(=O)c2ccccc2)c1Cl)c1ccccc1,inhibition,-,12.5 µg/mL,BACTEC,H37Rv,4%
CCOC(=O)CC(C#N)(CC(=O)OCC)C(=O)OCC,MIC,-,-,-,H37Rv,>100 µg/mL
ClCC1CSC(c2ccc3c(c2)OCO3)O1,inhibition,-,12.5 µg/mL,BACTEC,H37Rv,-32%
CC(C)c1ccc2c(c1)CC[C@H]1[C@](C)(CNCCNCCc3ccc(O)c(O)c3)CCC[C@]21C,MIC,-,-,-,-,50 µM
CCN(CC)c1ccc(Cc2ccc(N(CC)CC)cc2)cc1,MIC,-,-,-,H37Rv,50 µg/mL
CCCCCCCCCCCNCCNCc1cccc(OC)c1OC,MIC,-,-,-,-,25 µM
CCN(CC)CCNc1ccc(CO)c2oc3ccc(OS(=O)(=O)c4ccc(C)cc4)cc3c(=O)c12,MIC,-,-,-,KM-R,12.5 µg/mL
Cl.NNc1ncn[nH]1,MIC,-,-,-,H37Rv,>100 µg/mL
Fc1cccc(CCNCCNC23CC4CC(CC(C4)C2)C3)c1,MIC,-,-,-,-,50 µM
CCOC(=O)C(Br)C(C)CC,MIC,-,-,-,H37Rv,>100 µg/mL
Cc1cccc(CNCCNC[C@]2(C)CCC[C@]3(C)c4ccc(C(C)C)cc4CC[C@@H]23)c1,MIC,-,-,-,-,12.5 µM
COC(=O)c1cc([N+](=O)[O-])c(C)c(C)n1,inhibition,-,12.5 µg/mL,BACTEC,H37Rv,0%
NCC[C@H](O)C(=O)N[C@@H]1C[C@H](N)[C@@H](O[C@H]2O[C@H](CN)[C@@H](O)[C@H](O)[C@H]2O)[C@H](O)[C@H]1O[C@H]1O[C@H](CO)[C@@H](O)[C@H](N)[C@H]1O,MIC,-,-,-,TN718 (AY),64 µg/mL
CC(C)c1ccc2c(c1)CC[C@H]1[C@](C)(CNCCNCC(C)c3ccccc3)CCC[C@]21C,MIC,-,-,-,-,12.5 µM
CCOC(=O)Nc1cc(N)c2c(n1)OCC(c1cccc(OC)c1)=N2,EC50,-,-,-,H37Rv,>12.5 µg/mL
O=C(Cc1cccc2ccccc12)N/N=C/c1ccc(Cl)cc1Cl,inhibition,-,12.5 µg/mL,BACTEC,H37Rv,2%
Nc1ccccc1Oc1ccccc1N,MIC,-,-,-,H37Rv,>100 µg/mL
COC(=O)Nc1cc(NC(O)/C(=C/O)c2ccccc2)c([N+](=O)[O-])c(N)n1,inhibition,-,12.5 µg/mL,-,H37Rv,4%
CCCCCCCCCCCCCCCCN.Cl,MIC,-,-,-,H37Rv,>100 µg/mL
CC(=O)Cn1c(=O)oc2ccc([N+](=O)[O-])cc2c1=O,inhibition,-,6.25 µg/mL,resazurin,H37Rv,-13%
CCOC(=O)C(NC(=O)c1ccccc1)C(=O)OCC,MIC,-,-,-,H37Rv,>100 µg/mL
CNC(=O)C1CCCN1C(=O)C(Cl)Cl,MIC bound,-,-,BACTEC,H37Rv,>12.5 µg/mL
COc1cc2nccc(Cl)c2cc1OC,MIC,-,-,-,H37Rv,50 µg/mL
CC1=NN(c2cc(Cl)c(S(=O)(=O)O)cc2Cl)C(=O)C1N=Nc1ccc(S(=O)(=O)O)cc1,MIC,-,-,BACTEC,H37Rv,≥12.5 µg/mL
CO[C@H]1/C=C/O[C@@]2(C)Oc3c(C)c(O)c4c(O)c(c(/C=N/N5CCN(C/C=C/c6ccccc6)CC5)c(O)c4c3C2=O)NC(=O)/C(C)=C\C=C\[C@H](C)[C@H](O)[C@@H](C)[C@@H](O)[C@@H](C)[C@H](OC(C)=O)[C@@H]1C,MBC,-,-,-,31 (rifampin-resistant),0.4 µg/mL
C=CCNc1nc2c(s1)c1c(O)c3c(O)c(C)c4c(c32)C(=O)[C@@](C)(O/C=C/[C@H](OC)[C@@H](C)[C@@H](OC(C)=O)[C@H](C)[C@H](O)[C@H](C)[C@@H](O)[C@@H](C)/C=C/C=C(/C)C(=O)N1)O4,MIC bound,-,-,resazurin,H37Rv,<6.25 µg/mL
O=[N+]([O-])c1ccc2c(c1)oc1ccccc12,MIC,-,-,-,H37Rv,100 µg/mL
CCCCCCCCCCCNCCNCc1ccc(F)cc1,MIC,-,-,-,-,50 µM
CC[N+](CC)(CC)CCOC(=O)Nc1ccccc1.[I-],MIC,-,-,-,H37Rv,100 µg/mL
O=C1C2=C(Nc3cc([N+](=O)[O-])ccc3N2)OC1c1ccccc1Cl,MIC bound,-,-,BACTEC,H37Rv,>12.5 µg/mL
CCOC(=O)Nc1cc(N)c2[nH]c(C)nc2n1,EC50,-,-,-,H37Rv,>12.5 µg/mL
CS(=O)(=O)NC(=NCCOS(C)(=O)=O)N[N+](=O)[O-],inhibition,-,6.25 µg/mL,resazurin,H37Rv,-3%
COC(=O)CCCCC(=O)Nc1cc(I)c(I)c(I)c1,MIC,-,-,-,H37Rv,>100 µg/mL
CCOc1c(N=Nc2ccccc2Cl)c(C)nn1C(=S)S,MIC bound,-,-,BACTEC,H37Rv,>12.5 µg/mL
O=C(O)C(C(=O)O)C(=O)c1ccccc1,MIC,-,-,-,H37Rv,>100 µg/mL

A second listing of 7 rows from above:

compound | endpoint | cell line | dose | method | strain | result
CCCC(=O)NCCO | MIC | - | - | - | H37Rv | >100 µg/mL
COC(=O)C1=C(C)/C(=N/N)CC1 | MIC bound | - | - | BACTEC | H37Rv | >12.5 µg/mL
CCCCC(CC)CN1CN(CC(CC)CCCC)CC(C)(NCCNC(C)CCc2ccccc2)C1 | MIC | - | - | - | - | 25 µM
Cc1ccc(C(O)C(=O)O)cc1 | MIC | - | - | - | H37Rv | >100 µg/mL
CC(=O)Cn1c(=O)oc2ccc([N+](=O)[O-])cc2c1=O | inhibition | - | 6.25 µg/mL | resazurin | H37Rv | -13%
NCC[C@H](O)C(=O)N[C@@H]1C[C@H](N)[C@@H](O[C@H]2O[C@H](CN)[C@@H](O)[C@H](O)[C@H]2O)[C@H](O)[C@H]1O[C@H]1O[C@H](CO)[C@@H](O)[C@H](N)[C@H]1O | MIC | - | - | - | TN718 (AY) | 64 µg/mL
Cl.NNc1ncn[nH]1 | MIC | - | - | - | H37Rv | >100 µg/mL